Assay [1] has as its system HBsAg. Nature of the assay: PHH natural infection assay, HBsAg (alphalisa). It counts as cell-based. The following applies: read-out: HBsAg IC50; HBV-infected PHH, supernatant. For orientation: In Alpha technology, singlet oxygen from a donor bead excites a nearby acceptor bead.
Assay [2] relates to HBeAg. The assay can be described thus: PHH natural infection assay, HBeAg (alphalisa). The class given is cell-based. The following applies: read-out: HBeAg IC50; HBV-infected PHH, supernatant.

Regarding “N-[3-[3-(4-chlorophenyl)-1,2,4-oxadiazol-5-yl]-1-bicyclo[1.1.1]pentanyl]-2-(1-methyl-1-methylsulfonyl-propyl)pyridine-4-carboxamide”, the IC50 in assay [1] was determined as 770 nM; in assay [2] it was 560 nM.
As for “N-[3-[3-(4-chlorophenyl)-1,2,4-oxadiazol-5-yl]-1-bicyclo[1.1.1]pentanyl]-6-(1-methyl-1-methylsulfonyl-propyl)pyridine-2-carboxamide”, the IC50 in assay [1] came out at 720 nM; in assay [2], 470 nM.
As for “N-[3-[3-(4-chlorophenyl)-1,2,4-oxadiazol-5-yl]-1-bicyclo[1.1.1]pentanyl]-3-(1-methyl-2-methylsulfonyl-ethyl)benzamide”, the IC50 amounted to 470 nM in assay [1] and 370 nM in assay [2].

As usually defined, the IC50 is the concentration at which inhibition is half-maximal.
